Anti-infective test results gathered from many reports (values: NIAID ChemDB through PubChem).

All rows: whole-cell or culture tests; organism: HIV-1; read-out: EC50

Blank or dashed fields: not listed here. Conditions beyond the fields shown may differ between rows. ECn: concentration that inhibits the pathogen or its effect by n%.

| SMILES | mutations | strain | cells | read by | result |
|---|---|---|---|---|---|
| CCOP(=O)(OCC)C(F)(F)C[C@H]1CO[C@@H](n2ccc(=O)[nH]c2=O)[C@H]1F |  |  |  | cytopathic effect | >100 µM |
| O=C(NCCCNC(=O)c1cc2cc3c(cc2[nH]1)OCO3)c1cc2cc3c(cc2[nH]1)OCO3 |  |  | CEM | cytopathic effect / MTT | >200 µM |
| CC(C)C1=C2[C@H]3CC[C@@H]4[C@@]5(C)CC[C@H](OC(=O)[C@@H]6C[C@H](C(=O)O)C6(C)C)C(C)(C)[C@@H]5CC[C@@]4(C)[C@]3(C)CC[C@@]2(CC(=O)NCc2ccc(Cl)cc2)CC1=O |  | 92HT599 | MT-2 | p24 / ELISA | <1 µM |
| Cc1ccc(S(=O)(=O)NC(Cc2ccccc2)c2nnc(Nc3ccc(F)cc3)s2)cc1 |  | IIIB | MT-4 | MTT | >2.06 µM |
| CC(C)(C)NC(=O)c1c(CCC(O)Cc2ccc3ccccc3c2C(=O)NC(C)(C)C)ccc2ccccc12 |  |  | CEM + CEM-SS |  | 11.5 µM |
| Cc1ccc(S(=O)(=O)NC(c2nnc(Nc3ccc(F)cc3)s2)C(C)C)cc1 |  | IIIB | MT-4 | MTT | >9.5 µM |
| CCc1c(Cc2ccccc2)n(COCC2CC2)c(=O)[nH]c1=O |  | IIIB | MT-4 | MTT | 1.1 µM |
| Cc1cn([C@H]2C[C@H](N=[N+]=[N-])[C@@H](CO)O2)c(=O)[nH]c1=O |  |  |  | cytopathic effect | 0.007 µM |
| O=C(NCCc1ccccc1)c1cc2cc(O)c(O)cc2[nH]1 |  |  | CEM | cytopathic effect / MTT | >24 µM |
| CN[C@@H]1[C@H](O[C@@H]2OC[C@@H](O)[C@H](O)[C@H]2O)[C@@H](O)[C@H](O[C@H]2c3cc(C)c(C(=O)N[C@H](C)C(=O)O)c(O)c3-c3c(cc4c(c3O)C(=O)c3cc(OC)cc(O)c3C4=O)[C@@H]2O)O[C@@H]1C |  | Clade D UG270 (R4-tropic) | PBMC | p24 / ELISA | 3.7 µM |
| S=C(NCCc1ccccc1)Nc1nccs1 |  |  | MT-4 |  | 0.35 µg/mL |
| CCOP(=O)(OCC)C(F)(F)C[C@H]1CO[C@@H](n2cc(C)c(=O)[nH]c2=O)[C@H]1F |  |  |  | cytopathic effect | >100 µM |
| CCc1c(Cc2ccc(OC)c(OC)c2)n(COCCc2ccccc2)c(=O)[nH]c1=O |  | IIIB | MT-4 | MTT | >73 µM |
| Oc1ccc(-c2c3nc(c(-c4ccc(O)cc4O)c4ccc([nH]4)c(-c4ccc(O)cc4O)c4nc(c(-c5ccc(O)cc5O)c5ccc2[nH]5)C=C4)C=C3)c(O)c1 |  | LAV | PBMC | RT activity | 7.3 µM |
| CC(C)C1=C2[C@H]3CC[C@@H]4[C@@]5(C)CC[C@H](OC(=O)[C@H]6C[C@@H](C(=O)O)C6(C)C)C(C)(C)[C@@H]5CC[C@@]4(C)[C@]3(C)CC[C@@]2(CC(=O)NC(F)(CCCN)CNC(=O)c2ccc(Cl)cc2)CC1=O |  | 92HT599 | MT-2 | p24 / ELISA | <1 µM |
| COc1ccc(S(=O)(=O)NC(c2nnc(Nc3ccc(Br)cc3)s2)C(C)C)cc1 |  | IIIB | MT-4 | MTT | >9.39 µM |
| Nc1nc(=O)n([C@H]2O[C@@H](CO)[C@@H](O)[C@@H]2O)cc1F |  | IIIB | MT-4 | cytopathic effect / MTT | >100 µM |
| CC(C)C1=C2[C@H]3CC[C@@H]4[C@@]5(C)CC[C@H](OC(=O)[C@H]6C[C@@H](C(=O)O)C6(C)C)C(C)(C)[C@@H]5CC[C@@]4(C)[C@]3(C)CC[C@@]2([C@@H](O)CNC[C@H]2CCCCN2)CC1=O |  | 92HT599 | MT-2 | p24 / ELISA | <1 µM |
| CCc1c(Cc2cc(C)cc(C)c2)n(COCCc2ccccc2)c(=O)[nH]c1=O | K103R/V179D/P225H | EFVR | MT-4 | MTT | 20 µM |
| Nc1nc(=O)n([C@@H]2C[C@H](O)[C@H](CO)O2)cc1F |  | LAI | CEM + CEM-SS | cytopathic effect / MTT | >100 µM |
| CCOCn1c(Cc2ccc(C)cc2)c(CC)c(=O)[nH]c1=O | K103N/Y181C | A17 | MT-4 | MTT | >100 µM |
| CC(C)C1=C2[C@H]3CC[C@@H]4[C@@]5(C)CC[C@H](OC(=O)[C@@H]6C[C@H](C(=O)O)C6(C)C)C(C)(C)[C@@H]5CC[C@@]4(C)[C@]3(C)CC[C@@]2([C@@H](O)CNC(=O)c2ccc(Cl)cc2)CC1=O |  | 92HT599 | MT-2 | p24 / ELISA | <1 µM |
| Cc1cn([C@H]2CC[C@@H](COC(=O)c3ccccc3)O2)c(=O)[nH]c1=O |  |  | MT-2 | cytopathic effect | <250 µM |
| CC1CNC(=O)c2ccccc2SSc2ccccc2C(=O)N1 |  | IIIB | HuT-78 | p24 / ELISA / antigen | 29 µM |
| O=C(NCCCCNC(=O)c1cc2cc3c(cc2[nH]1)OCO3)c1cc2cc3c(cc2[nH]1)OCO3 |  |  | CEM | cytopathic effect / MTT | >200 µM |
| Nc1ccn([C@@H]2OC[C@H](CC(F)(F)P(=O)(O)O)[C@@H]2F)c(=O)n1 |  |  |  | cytopathic effect | >100 µM |
| CC(C)C1=C2[C@H]3CC[C@@H]4[C@@]5(C)CC[C@H](OC(=O)[C@H]6C[C@@H](C(=O)O)C6(C)C)C(C)(C)[C@@H]5CC[C@@]4(C)[C@]3(C)CC[C@@]2([C@@H](O)CNC(=O)CNC(=O)c2ccc(Cl)cc2)CC1=O |  | 92HT599 | MT-2 | p24 / ELISA | <1 µM |
| O=C(c1cc2cc3c(cc2[nH]1)OCO3)N1CCN(C(=O)c2cc3cc4c(cc3[nH]2)OCO4)CC1 |  |  | CEM | cytopathic effect / MTT | >200 µM |
| COc1ccc(S(=O)(=O)NC(c2nnc(Nc3ccc(F)cc3)s2)C(C)C)cc1 |  | IIIB | MT-4 | MTT | >9.34 µM |
| Cc1cn([C@H]2C[C@H](N=[N+]=[N-])[C@@H](CO)O2)c(=O)[nH]c1=S |  |  | ATH8 | cytopathic effect | <50 µM |
| CCc1c(Cc2cc(C)cc(C)c2)n(COCC2CC2)c(=O)[nH]c1=O |  | IIIB | MT-4 | MTT | 0.03 µM |
| CC1(C)Oc2ccc3ccc(=O)oc3c2[C@H](OC(=O)C23CCC(C)(C(=O)O2)C3(C)C)[C@H]1OC(=O)C12CCC(C)(C(=O)O1)C2(C)C |  | IIIB | H9 | p24 / ELISA | >6.4 µM |
| COc1ccc(Nc2nnc(C(Cc3ccccc3)NS(=O)(=O)c3ccc(C)cc3)s2)cc1 |  | IIIB | MT-4 | MTT | >63.55 µM |
| Oc1ccc(-c2c3nc(c(-c4ccc(O)c(O)c4)c4ccc([nH]4)c(-c4ccc(O)c(O)c4)c4nc(c(-c5ccc(O)c(O)c5)c5ccc2[nH]5)C=C4)C=C3)cc1O |  | LAV | PBMC | RT activity | 12 µM |
| O=c1ccn([C@@H]2OC[C@H](CC(F)(F)P(=O)(O)O)[C@@H]2F)c(=O)[nH]1 |  |  |  | cytopathic effect | >100 µM |
| COc1ccc(-c2c3nc(c(-c4ccc(OC)cc4)c4ccc([nH]4)c(-c4ccc(OC)cc4)c4nc(c(-c5ccc(OC)cc5)c5ccc2[nH]5)C=C4)C=C3)cc1 |  | LAV | PBMC | RT activity | 8 µM |
| Nc1nc(=O)n([C@H]2O[C@@H](CO)[C@@H](O)[C@H]2O)cc1F |  | LAI | CEM + CEM-SS | cytopathic effect / MTT | >100 µM |
| CC1(C)Oc2ccc3ccc(=O)oc3c2[C@@H](OC(=O)C23CCC(C)(C(=O)O2)C3(C)C)[C@H]1OC(=O)C12CCC(C)(C(=O)O1)C2(C)C |  | IIIB | PBMC | p24 / ELISA | 0.029 µM |
| O=C(NCCCCNC(=O)c1cc2cc(O)c(O)cc2[nH]1)c1cc2cc(O)c(O)cc2[nH]1 |  |  | CEM | cytopathic effect / MTT | >26 µM |
| COc1ccc(Nc2nnc(C(NS(=O)(=O)c3ccc(OC)cc3)C(C)C)s2)cc1 |  | IIIB | MT-4 | MTT | >21.03 µM |
| CCc1c(Cc2ccccc2)n(COCCCc2ccccc2)c(=O)[nH]c1=O | Y181C | N119 | MT-4 | MTT | >23 µM |
| CC(C)C(NS(=O)(=O)c1ccc(Cl)cc1)c1nnc(Nc2ccc(F)cc2)s1 |  | IIIB | MT-4 | MTT | >8.81 µM |
| CC(C)C1=C2[C@H]3CC[C@@H]4[C@@]5(C)CC[C@H](OC(=O)[C@H]6C[C@@H](C(=O)O)C6(C)C)C(C)(C)[C@@H]5CC[C@@]4(C)[C@]3(C)CC[C@@]2(CC(=O)NCc2ccccc2Cl)CC1=O |  | 92HT599 | MT-2 | p24 / ELISA | <1 µM |
| Cc1ccc(-c2nnc3ccc4c(C(F)(F)F)cc(C(F)(F)F)nc4n23)cc1 |  | Isolate 2076 | PBMC | p24 | 18 µM |
| OC1COC(O)C(O)C1O.OCC1OC(O)C(O)C(O)C1O.OCC1OC(O)C(O)C(O)C1O.OCC1OC(O)C(O)C(O)C1O |  | N1T | CEM | p24 / ELISA | <30 µg/mL |
| CCc1c(Cc2ccc(OC)c(OC)c2)n(COCc2ccccc2)c(=O)[nH]c1=O |  | IIIB | MT-4 | MTT | 12 µM |
| C=CCN(C(=O)OCc1ccc([N+](=O)[O-])cc1)C1CCN(C[C@H]2CN(C(=O)C3CCCC3)C[C@]2(O)c2ccccc2)CC1 |  | NL4-3 X4 CLADE B | PBMC | p24 | >1 µM |
| CCOP(=O)(OCC)C(F)(F)C[C@H]1CO[C@@H](n2ccc(N)nc2=O)[C@H]1F |  |  |  | cytopathic effect | >100 µM |
| CC(=O)CC(c1ccccc1)c1c(O)c2ccccc2oc1=O |  |  | ACH-2(HIV-1(IIIB)) + ACH2 | p24 / RT activity | 0.001 µM |
| COc1ccc(Nc2nnc(C(NS(=O)(=O)c3ccc(Br)cc3)C(C)C)s2)cc1 |  | IIIB | MT-4 | MTT | >9.57 µM |